Tests used:
Assay in all cases: SPR
[1] = target: lander’s horseshoe bat ACE2, mouse Fc (mFc)-fused (lander’s horseshoe bat)
[2] = target: alpaca ACE2, mFc-fused, alpaca
[3] = target: greater horseshoe bat (Rhinolophus ferrumequinum) ACE2, mFc-fused, greater horseshoe bat (Rhinolophus ferrumequinum)
[4] = target: T1, intermediate horseshoe bat (Rhinolophus affinis) ACE2, mFc-fused, intermediate horseshoe bat (Rhinolophus affinis)
T1 sequence: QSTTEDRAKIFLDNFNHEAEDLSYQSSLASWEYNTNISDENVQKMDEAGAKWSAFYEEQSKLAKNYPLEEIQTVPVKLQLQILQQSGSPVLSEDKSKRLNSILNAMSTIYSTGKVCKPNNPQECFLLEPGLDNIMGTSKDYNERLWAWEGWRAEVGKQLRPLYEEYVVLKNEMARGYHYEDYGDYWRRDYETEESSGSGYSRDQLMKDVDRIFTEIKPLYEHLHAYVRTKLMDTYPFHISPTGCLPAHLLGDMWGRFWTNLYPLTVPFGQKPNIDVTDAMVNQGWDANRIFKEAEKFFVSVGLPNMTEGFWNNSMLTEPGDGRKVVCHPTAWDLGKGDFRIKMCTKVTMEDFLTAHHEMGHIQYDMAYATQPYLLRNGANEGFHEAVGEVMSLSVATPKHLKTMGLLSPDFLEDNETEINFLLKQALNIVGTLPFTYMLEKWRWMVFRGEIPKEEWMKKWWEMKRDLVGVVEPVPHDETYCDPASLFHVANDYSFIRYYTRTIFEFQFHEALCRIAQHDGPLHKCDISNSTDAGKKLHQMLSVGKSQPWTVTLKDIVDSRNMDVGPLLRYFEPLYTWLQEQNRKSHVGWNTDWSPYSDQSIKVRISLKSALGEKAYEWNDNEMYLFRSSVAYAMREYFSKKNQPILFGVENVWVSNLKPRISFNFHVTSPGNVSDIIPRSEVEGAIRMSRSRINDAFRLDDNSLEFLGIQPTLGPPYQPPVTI

Row | Substance | Kd [1] [µM] | Kd [2] [µM] | Kd [3] [µM] | Kd [4] [µM]
1 | BtKY72 RBD (domain or fragment) | 1.6 | – | – | –
2 | BtKY72 RBD | – | 76.7 | 7.19 | 3.06
